Test results from ChEMBL document CHEMBL1138147, “Respiratory syncytial virus fusion inhibitors. Part 3: Water-soluble benzimidazol-2-one derivatives with antiviral activity in vivo” (Bioorg Med Chem Lett, 2006).

Columns and labels:
[1] = tested on: HEp-2; experiment: Cytotoxicity against human Hep2 cells infected with RSV Long strain; type: functional
[2] = Therapeutic index (CC50/EC50) for RSV infected Hep2 cells; type: cell-based; conditions: human, hep-2
[3] = tested on: Cotton rat; experiment: Efficacy in cotton rat measured as reduction in log TCID50 of RSV per gram of lung at 0.5 mg/mL
[4] = tested on: Mus musculus; experiment: Efficacy in BALB/c mouse measured as reduction in log TCID50 of RSV per gram of lung at 50 mg/kg, po
[5] = tested on: Mus musculus; experiment: Efficacy in BALB/c mouse measured as reduction in log TCID50 of RSV per gram of lung at 50 mg/kg, sc; conditions: route subcutaneous
[6] = tested on: Mus musculus; experiment: Efficacy in BALB/c mouse measured as reduction in log TCID50 of RSV per gram of lung at 15 mg/kg, po

For `COC(=O)c1ccccc1Cn1c(=O)n(Cc2nc3ccccc3n2CCN(C)C)c2ccccc21`, the CC50 [1] was 11.5 µM and the Ratio CC50/EC50 [2] was 605.
In the case of `CN(C)CCn1c(Cn2c(=O)n(Cc3ccc(C(=O)O)cc3)c3ccccc32)nc2ccccc21`, the Efficacy [3] is reported as 4.3, the Efficacy [4] is reported as 2.72 and the CC50 [1] is reported as > 150 µM. For the same compound, the Ratio CC50/EC50 [2] was > 765.
For `C=C(C)n1c(=O)n(Cc2nc3ccccc3n2CCN(C)C)c2ccccc21`, the CC50 [1] was 9.9 µM and the Ratio CC50/EC50 [2] was 900.
With `CC(C)n1c(=O)n(Cc2nc3ccccc3n2CCN(C)C)c2ccccc21` the CC50 [1] was 9.5 µM and the Ratio CC50/EC50 [2] was 678.
With `CN(C)CCn1c(Cn2c(=O)n(Cc3ccccc3C(=O)O)c3ccccc32)nc2ccccc21` the CC50 [1] was 3.2 µM and the Ratio CC50/EC50 [2] was 25.
In the case of `COC(=O)c1ccc(Cn2c(=O)n(Cc3nc4ccccc4n3CCN(C)C)c3ccccc32)cc1`, the Efficacy [5] is reported as 2.59, the Efficacy [4] is reported as 3.47 and the CC50 [1] is reported as 28 µM. It also gave a Ratio CC50/EC50 [2] of 1220.
With `CN(C)CCn1c(Cn2c(=O)n(Cc3ccc(C(=O)N(C)C)cc3)c3ccccc32)nc2ccccc21` the Efficacy [4] was 3.09, the Efficacy [6] was 3.88 and the CC50 [1] was 68.7 µM. It also gave a Ratio CC50/EC50 [2] of 369.
With `CN(C)CCn1c(Cn2c(O)nc3ccccc32)nc2ccccc21` the CC50 [1] was 292 µM and the Ratio CC50/EC50 [2] was 4710.

Only a part of the results on these compounds is given; other tests are left out.
